# PubChem BioAssay AID1259414 | Drosophila RNAi Screening Center – 2018
# Aim: 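Host factors increasing or decreasing Wolbachia levels in cultured fly cells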 (primary screen)
# Cells: Drosophila JW18 cells infected with Wolbachia
# Knock-down reagent: long dsRNA against Drosophila genes, 0.25 µg dsRNA per well of a 384-well plate
# Duration: 5 days
# Treatment: cells persistently infected with Wolbachia before knock-down; no added drug
# Detection: 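Automated imaging of bacterial rRNA staining divided by host cell count, reported as plate-normalised robust z-score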
# Scale: Wolbachia per cell robust z: higher = more Wolbachia per host cell than the plate typical
# Call rule: 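Hit when robust z is 1.5 or more, or -1.5 or less, in at least two of three replicates; excludes dsRNAs with several or no targets, genes not expressed in JW18 and well A1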
# The screen tested about 24,000 reagents; below is an unselected part of those that have a named target and a result. Of all reagents, about 1,210 (5%) were called active. 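Inactive calls also include excluded dsRNAs with several or no targets, genes unexpressed in JW18, and well A1, regardless of score.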 The numbers tell different reagents against one gene apart. Reagent sequences are not shown.
The first 4 records, to show the layout:
"Wolbachia per cell robust z, rep 1","Wolbachia per cell robust z, rep 2","Wolbachia per cell robust z, rep 3",outcome,predicted target,reagent
-1.58,-1.95,-2.26,inactive,CG9240,1
-1.49,-0.38,0.302,inactive,mt:srRNA,1
0.185,-1.37,-0.204,inactive,CG14190,1
1.09,0.353,0.689,inactive,CG14190,2

The listing, from the first entry:
"Wolbachia per cell robust z, rep 1","Wolbachia per cell robust z, rep 2","Wolbachia per cell robust z, rep 3",outcome,predicted target,reagent
-1.58,-1.95,-2.26,inactive,CG9240,1
-1.49,-0.38,0.302,inactive,mt:srRNA,1
0.185,-1.37,-0.204,inactive,CG14190,1
1.09,0.353,0.689,inactive,CG14190,2
1.13,0.459,-0.697,inactive,E23,1
-0.097,-0.624,1.42,inactive,E23,2
1.25,-0.349,1.76,inactive,SIDL,1
1.3,0.612,-1.84,inactive,GC,1
-5.87,-1.71,-1.51,active,GC,2
1.09,0.0326,1.06,inactive,CG10343,1
0.253,1.09,0.381,inactive,CG10343,2
-0.149,-0.131,0.264,inactive,l(3)76BDm,1
1.96,1.3,5.37,active,U2af50,1
0.602,0.0798,-0.235,inactive,U2af50,2
-0.158,1.31,-0.157,inactive,CG11294,1
0.346,-0.875,0.552,inactive,CG11294,2
0.926,0.246,0.392,inactive,CG15571,1
-1.02,0.44,-1.14,inactive,CG15571,2
-4.74,-0.971,2.67,inactive,CG12147,1
-5.75,-1.2,0.456,inactive,CG12147,2
-2,-3.16,-7.25,inactive,dbr,1
-0.095,-0.87,-0.0988,inactive,Dp1,1
0.635,-0.0914,-3.25,inactive,CG6225,1
0.754,-0.0345,-4.34,inactive,disco,1
-0.804,-0.601,0.631,inactive,disco,2
0.315,0.489,0.0366,inactive,rgn,1
-3.77,0.375,-2.93,active,St3,1
0.656,-7.3,-0.545,inactive,St3,2
-1.83,-2.22,-2.13,inactive,Obp19c,1
-2.18,-1.24,-2.7,inactive,Ir56b,1
0.858,-0.609,-0.85,inactive,Ir56b,2
-1.4,-0.374,-0.713,inactive,CG1492,1
0.478,0.31,0.512,inactive,PIG-F,1
0.901,-0.0788,1.31,inactive,PIG-F,2
0.653,0.326,1.01,inactive,CG13856,1
0.398,0.187,0.272,inactive,Eb1,1
0.27,0.55,-1.74,inactive,Eb1,2
0.618,-0.713,-0.399,inactive,CG4424,1
1.58,0.768,0.184,inactive,Dpp10,1
1.35,0.523,0.809,inactive,Dpp10,2
0.549,0.582,0.157,inactive,smu (retired record),1
-0.462,-0.969,-0.795,inactive,smu (retired record),2
-0.125,-3.58,0.749,inactive,CG12479,1
-0.449,0.825,-2.14,inactive,CG12479,2
0.167,-1.51,-7.23,active,RhoGAP15B,1
1.4,0.61,-0.251,inactive,RhoGAP15B,2
